Pooled drug test results. Numbers come from NIAID ChemDB, via PubChem.

Shared fields: toxicity to cultured cells; cell line: HepG2; endpoint: CC50

Conditions beyond the fields shown may differ between rows.

compound | read by | result
Cc1c(C(=O)Nc2ccc(F)c(C#N)c2)c(C)n(C)c1C(=O)C(=O)NC1CCC(O)CC1 | MTT | >30 µM
CNC(=O)c1ccc(-n2c([C@@H](O)C(C)C)nc3c(c2=O)C[C@@H](C)N(C(=O)c2ccc(Br)c(C(F)(F)F)c2)C3)cc1 | luminescence | >50 µM
COc1ccc(F)cc1CNCCCNc1ccnc2cc(C3CCCCC3)ccc12 | fluorescence | 2.29 µM
Cc1cc(NC(=O)c2c(C)c(C(=O)C(=O)NC3(C)CCC(O)CC3)n(C)c2C2CCCCC2)ccc1F | MTT | >30 µM
COc1ccc(F)cc1CNCCCNc1ccnc2cc(Oc3ccccc3OC)ccc12 | fluorescence | 6.4 µM
CNC(=O)c1cnc(-n2c(NC(C)C)nc3c(c2=O)C[C@@H](C)N(C(=O)c2ccc(Cl)c(C(F)(F)F)c2)C3)n1C | luminescence | >50 µM
CCc1c(C(=O)Nc2ccc(F)c(C)c2)c(C)c(C(=O)C(=O)NC2CCC(S(C)(=O)=O)CC2)n1C | MTT | >30 µM
CNC(=O)c1ccc(-n2c(NC(C)C)nc3c(c2=O)C[C@@H](C)N(C(=O)c2ccc(C(F)F)c(Br)c2)C3)cc1 | luminescence | >50 µM
COc1ccc(F)cc1CNCCCNc1ccnc2cc(Cc3cccc(C(F)(F)F)c3)ccc12 | fluorescence | 0.44 µM
CC(C)N(Cc1cccc(OCCCCCC(=O)OC(=O)O)c1)C(=O)c1ccc(-c2cc3ccccc3n2S(=O)(=O)c2ccccc2)cc1 | - | >20 µM
CNC(=O)c1nc(-n2c(NC(C)C)nc3c(c2=O)C[C@@H](C)N(C(=O)c2ccc(Cl)c(C(F)(F)F)c2)C3)cn1C | luminescence | >50 µM
Cc1cc(NC(=O)c2c(C(C)C)c(C(=O)C(=O)NCC(C)(C)O)n(C)c2C)ccc1F | MTT | >30 µM
CCOC(=O)CCCCCOc1cccc(CN(C(=O)c2ccc(Br)cc2)C(C)C)c1 | - | >20 µM
CNC(=O)c1ccc(-n2c(C(C)C)nc3c(c2=O)C[C@@H](C)N(C(=O)c2ccc(Cl)c(C(F)(F)F)c2)C3)cc1 | luminescence | >50 µM
COC(=O)c1cc(-c2cccs2)nc2ccccc12 | - | >20 µM
CC(C)(C)c1ccc(Oc2ccc3c(NCCCNCc4ccco4)ccnc3c2)cc1 | fluorescence | 3.1 µM
CCOC(=O)CCCCCOc1cccc(CN(C(=O)c2ccc(-c3cccc4ccccc34)cc2)C(C)C)c1 | - | >20 µM
Cc1cc(C)cc(Cc2ccc3c(NCCCNCc4ccco4)ccnc3c2)c1 | fluorescence | 6.27 µM
CCOC(=O)CCCCCOc1cccc(CN(C(=O)c2ccc(-c3cccc(OCC)c3)cc2)C(C)C)c1 | - | >20 µM
CNC(=O)c1ccc(-n2c(NC(C)C)nc3c(c2=O)C[C@@H](C)N(C(=O)c2ccc(Cl)c(C(F)(F)F)c2F)C3)cc1 | luminescence | >50 µM
Cc1cc(NC(=O)c2c(C)c(C(=O)C(=O)Nc3ccccc3N3CCOCC3)n(C)c2C)ccc1F | MTT | 5–30 µM
CC(C)N(Cc1cccc(OCCCCCC(=O)OC(=O)O)c1)C(=O)c1ccc(-c2cccc(Cl)c2)cc1 | - | >20 µM
Cc1cc(NC(=O)c2c(C)c(C(=O)C(=O)NC3(C)CCN(CC(=O)O)CC3)n(C)c2C)ccc1F | MTT | >30 µM
CCOC(=O)CCCCCOc1cccc(CN(C(=O)c2ccc(-c3cc(F)cc(OC)c3)cc2)C(C)C)c1 | - | >20 µM

Repeating the final 2 entries:

Cc1cc(NC(=O)c2c(C)c(C(=O)C(=O)NC3(C)CCN(CC(=O)O)CC3)n(C)c2C)ccc1F ; read by: MTT ; result: >30 µM
CCOC(=O)CCCCCOc1cccc(CN(C(=O)c2ccc(-c3cc(F)cc(OC)c3)cc2)C(C)C)c1 ; result: >20 µM

CCn: concentration that lowers growth or viability of the cells by n%. a–b is a range or a potency band. An empty or dashed field is not shown.